System: human PBMCs
Experiment: IL-6 and MCP-3 release from human PBMCs (ELISA, Example 15)
Assay type: cell-based
Settings: pre-incubation with inhibitor

Question: Which “MCP-3 production from combined LL-37 and IL-1β” value does the source give for pertussis toxin here?
Answer: Its value is “dramatically inhibited”.

— US20070134261A1, “Effectors of innate immunity” (priority 2001, published 2007)
